{"source": "the supplement of paper PMC9931576", "binders": {"B1": {"name": "BD56-1297 (protein)", "chain 1": "QVQLVQSGAEVKKPGSSVKVSCKASGGTFSSYDISWVRQAPGQGLEWMGRIIPILGIASYAQKFQGRLTITADESTSTAYMELSTLRSEDTGVYYCAREAANLEMATGWTYNRFDPWGQGTLVTVSS", "chain 2": "DIQMTQSPSSLSASVGDRVTITCRASQSISSYLNWYQQEPGKAPKLLIYAASSLQSGVPSRFSGSGSGTDFTLTISGLQPEDFATYYCQQSYNSLSTFGPGTKVDIK"}, "B2": {"name": "BD56-1298 (protein)", "chain 1": "EVQLVESGGGLVQPGGSLRLSCAASGFTFSSYDMHWVRQATGDSLEWVSTIGTSDDTYYAGSVRGRFTISRENGKNSLYLQMNSLRAGDTAVYYCARTDYQNTLVGYFDLWGRGTLVTVSS", "chain 2": "DIQMTQSPSSLSASLGDRVTITCRASQYISNYLNWFQQKPGKAPKLLIYAASSLQSGVPSRFSGSGFGTDFTLTISSLQPEDFATYYCQQSYITPELIFGPGTKVDIK"}, "B3": {"name": "BD56-1308 (protein)", "chain 1": "EVHLVQSGAEVKKPGASVKVSCKASGHSFTSHYIHWVRQARGQGLEWMGIINPSAGSTTYAQKFQGRVTMTTDTSTSTVYMELSRLKSDDTAVYYCARDESFIPAMGWFDPWGQGTLVTVSS", "chain 2": "EIVLTQSPATLSLSPGERATLSCRASQSVSRYIAWYQQKPGQAPRLLIYDASNRATGIPARFSGSGSGTDFTLTISSLEPEDFTVYYCQQRSNWPPSYTFGQGTKLEIK"}, "B4": {"name": "BD56-1310 (protein)", "chain 1": "QVQLVQSGAEVKKPGASVKVSCKASGYTFTTYHIHWVRQAPGQGLEWMGIINPSGGTRRYAQNFQGRVSMTGDTSASTVYMELSSLRSEDTAIYYCARELVVPAAGYMDVWGKGTTLTVSS", "chain 2": "SDVLTQPPSVSVAPGKTARVTCGGNNIGSTSVHWYQQKPGQAPVLVLSDDSDRPSGIPERFSGSSSGNTATLTISRVEAGDEADYYCQVFDGSTDHFYVFGSGTKVTVL"}, "B5": {"name": "BD56-1312 (protein)", "chain 1": "QVQLVESGGGVVQPGRSLRLSCAASGFTFSSYSFHWVRQAPRRGLEWVAVISSDGNIKFYAESVKGRFTISRDNSRNTMYLQMNSLSAEDAAVYYCARDRDDSSGWFVDYWGQGTRVTVSS", "chain 2": "DIQMTQSPSSLSASVGDRVTITCRASQGIKNSLAWYQQKPGKAPKLLLYAASRLESGVPSRFSGSGSGTDYSLTISSLQPEDFATYYCQQYYGMPPITFGQGTRLEIK"}, "B6": {"name": "BD56-1313 (protein)", "chain 1": "QVQLVESGGGVVQPGRSLRLSCATSGFTFRHYAMHWVRQAPGKGLEWLAVIWYDGSDKYHTASVKGRFTISRDNSNNRLYLQMNTLKVEDTAVYYCAKNFMPYCAAGACSGGVMDYWGQGTLVTVSS", "chain 2": "DIQMTQSPSSLSASVGDRVTITCQASQDIGNYLNWYQLKPGKAPKLLIYDASSLETGVPSRFSGSGSGTHFTFSISSLQPEDFATYYCQQYGNLPQTFGPGTKVDIK"}}, "note": "Human monoclonal antibodies against the spike receptor-binding domain (heavy:light variable regions). IC50 against pseudoviruses bearing the spike of naturally observed variants; lower = stronger; >10 µg/ml means not reached at the top dose. No active / inactive call. The stated detection limit is 0.0005 µg/ml; values near or below 0.001 µg/ml lie at the floor of the assay."}
{"molecular_target": "SARS-CoV-2 Omicron BA.1 spike pseudovirus", "assay": "pseudovirus neutralization IC50; higher = weaker neutralization", "experimental": "(§1)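 Single-round VSV luciferase pseudovirus mixed with antibody dilutions for 1 h and put on Huh-7 cells for about a day; IC50 from the dose curve.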", "units": {"pseudovirus neutralization IC50": "µg/mL"}}
{"binder": "B1", "pseudovirus neutralization IC50": 0.00777}
{"binder": "B2", "pseudovirus neutralization IC50": 2.85}
{"binder": "B3", "pseudovirus neutralization IC50": 3.32}
{"binder": "B4", "pseudovirus neutralization IC50": "> 10"}
{"binder": "B5", "pseudovirus neutralization IC50": 4.04}
{"binder": "B6", "pseudovirus neutralization IC50": 2.56}
{"molecular_target": "SARS-CoV-2 Omicron BA.2 spike pseudovirus", "assay": "pseudovirus neutralization IC50; higher = weaker neutralization", "experimental": "as §1", "units": {"pseudovirus neutralization IC50": "µg/mL"}}
{"binder": "B1", "pseudovirus neutralization IC50": 0.00308}
{"binder": "B2", "pseudovirus neutralization IC50": 3.22}
{"binder": "B3", "pseudovirus neutralization IC50": 3.31}
{"binder": "B4", "pseudovirus neutralization IC50": "> 10"}
{"binder": "B5", "pseudovirus neutralization IC50": 3.38}
{"binder": "B6", "pseudovirus neutralization IC50": 2.57}
{"molecular_target": "SARS-CoV-2 Omicron BA.2.75 spike pseudovirus", "assay": "pseudovirus neutralization IC50; higher = weaker neutralization", "experimental": "as §1", "units": {"pseudovirus neutralization IC50": "µg/mL"}}
{"binder": "B1", "pseudovirus neutralization IC50": 0.0071}
{"binder": "B2", "pseudovirus neutralization IC50": 2.71}
{"binder": "B3", "pseudovirus neutralization IC50": "> 10"}
{"binder": "B4", "pseudovirus neutralization IC50": "> 10"}
{"binder": "B5", "pseudovirus neutralization IC50": 3.03}
{"binder": "B6", "pseudovirus neutralization IC50": 1.99}
{"molecular_target": "SARS-CoV-2 Omicron BA.5 spike pseudovirus", "assay": "pseudovirus neutralization IC50; higher = weaker neutralization", "experimental": "as §1", "units": {"pseudovirus neutralization IC50": "µg/mL"}}
{"binder": "B1", "pseudovirus neutralization IC50": "> 10"}
{"binder": "B2", "pseudovirus neutralization IC50": 2.87}
{"binder": "B3", "pseudovirus neutralization IC50": "> 10"}
{"binder": "B4", "pseudovirus neutralization IC50": "> 10"}
{"binder": "B5", "pseudovirus neutralization IC50": 3.99}
{"binder": "B6", "pseudovirus neutralization IC50": 2.38}
{"molecular_target": "SARS-CoV-2 Omicron BQ.1.1 spike pseudovirus", "assay": "pseudovirus neutralization IC50; higher = weaker neutralization", "experimental": "as §1", "units": {"pseudovirus neutralization IC50": "µg/mL"}}
{"binder": "B1", "pseudovirus neutralization IC50": "> 10"}
{"binder": "B2", "pseudovirus neutralization IC50": 3.08}
{"binder": "B3", "pseudovirus neutralization IC50": "> 10"}
{"binder": "B4", "pseudovirus neutralization IC50": "> 10"}
{"binder": "B5", "pseudovirus neutralization IC50": 2.91}
{"binder": "B6", "pseudovirus neutralization IC50": 1.71}
{"molecular_target": "SARS-CoV-2 Omicron XBB spike pseudovirus", "assay": "pseudovirus neutralization IC50; higher = weaker neutralization", "experimental": "as §1", "units": {"pseudovirus neutralization IC50": "µg/mL"}}
{"binder": "B1", "pseudovirus neutralization IC50": "> 10"}
{"binder": "B2", "pseudovirus neutralization IC50": 3.43}
{"binder": "B3", "pseudovirus neutralization IC50": "> 10"}
{"binder": "B4", "pseudovirus neutralization IC50": "> 10"}
{"binder": "B5", "pseudovirus neutralization IC50": 4.2}
{"binder": "B6", "pseudovirus neutralization IC50": 2.64}
{"molecular_target": "SARS-CoV-2 early D614G spike pseudovirus", "assay": "pseudovirus neutralization IC50; higher = weaker neutralization", "experimental": "as §1", "units": {"pseudovirus neutralization IC50": "µg/mL"}}
{"binder": "B1", "pseudovirus neutralization IC50": 0.138}
{"binder": "B2", "pseudovirus neutralization IC50": 1.07}
{"binder": "B3", "pseudovirus neutralization IC50": "> 10"}
{"binder": "B4", "pseudovirus neutralization IC50": "> 10"}
{"binder": "B5", "pseudovirus neutralization IC50": 0.952}
{"binder": "B6", "pseudovirus neutralization IC50": 1.93}
